Anti-infective test results gathered from many reports (values: NIAID ChemDB through PubChem).

Shared fields: host cell toxicity; read-out: CC50

Lines come from different laboratories, so protocols vary. An empty or dashed field is not shown. CCn is the concentration with n% toxicity to the cells.

smiles,read by,cells,conditions,value
NC(=S)N/N=C(\c1ccccc1)c1ccccn1,propidium iodide,CEM-GFP,,>10 µM
O=c1[nH]c(=O)n([C@H]2C[C@H](O)[C@@H](CO)O2)cc1/C=C/Br,,CD4+ T lymphocytes,,90 µg/mL
CO[C@@H]1C2=CC(O)C(O)C=C2O[C@@]2(C)CC[C@H]3C(C)(C)CCC[C@]3(C)[C@@H]12,resazurin,J774A.1 macrophages,,8 µg/mL
OC1C(O)C(O)C(O)C(O)C1O,ATP,RAJI,,>26 µM
COc1cc([C@@H]2c3cc4c(cc3[C@H](OC(C)=O)[C@@H]3COC(=O)[C@H]23)OCO4)cc2c1OCCO2,,P-388,,2.2 µM
CN(C)C(=O)O/N=C1\c2ccccc2-c2c1c(N1CCN(c3ccccn3)CC1)nc1ccc(Br)cc21,MTT,U-937,,>10 µg/mL
O=c1nc(N2CC(=NOCc3ccccc3)C2)sc2c([N+](=O)[O-])cc(C(F)(F)F)cc12,MTT,A-594,,158 µg/mL
COc1cc([C@@H]2c3cc4c(cc3[C@H](OC(C)=O)[C@@H]3COC(=O)[C@H]23)OCO4)cc2c1OCO2,,P-388,,2.27 µM
Cc1cc(NS(=O)(=O)c2ccc(N3C(=O)CSC3c3ccc(Cl)cc3)cc2)no1,MTT,HCT116,,>100 µg/mL
c1cc(CN2CCCNCCNCCCNCC2)ccc1CN1CCCNCCNCCCNCC1,,HEK,,>1 µM
Nc1ccn([C@@H]2CC[C@H](CO)O2)c(=O)n1,,2.2.15,,>20 µM
Nc1nc2c(ncn2C[C@]2(CO)C[C@H]2CO)c(=O)[nH]1,MTS,HEL,,>175 µM
CN(N=C(c1ccccn1)c1ccccn1)C(N)=S,propidium iodide,CEM-GFP,,>10 µM
COc1cc([C@@H]2c3cc4c(cc3[C@H](O)[C@H]3COC(=O)[C@H]23)OCO4)cc(OC)c1OC,,HT-29,,0.012 µM
CC1(C)CC[C@]2(C(=O)O)CC[C@]3(C)C(=CC[C@@H]4[C@@]5(C)C[C@@H](O)[C@H](O)C(C)(C)[C@@H]5CC[C@]43C)[C@@H]2C1,ATP,BJ,,>26 µM
CCCCCCCCCCCCCCCO[P@]1(=O)OC[C@@H]2COC(=O)C2=C(CCCC)O1,resazurin,AsPC-1,,>50 µM
Nc1nc2c(ncn2CCC(CO)CO)c(=O)[nH]1,MTS,HEL,,>750 µM
COC1=CC([C@@H]2c3cc4c(cc3[C@H](OC(C)=O)[C@@H]3COC(=O)[C@H]32)OCO4)=CC(=O)C1=O,,MEL-28,,0.59 µM
Nc1cc(SCCOCP(=O)(O)O)nc(N)n1,,HEPAD79,,>357 µM
COC(=O)[C@@H]1[C@H](c2cc(OC)c3nc4cc(Cl)c(Cl)cc4nc3c2)c2cc3c(cc2C2=NOC[C@@H]21)OCO3,,HT-29,,>18 µM
S=C(N/N=C(/c1ccccn1)C1C=CC=CN1)c1ccccc1,propidium iodide,CEM-GFP,,1.2 µM
Nc1ccn([C@H]2CO[C@@H](CO)O2)c(=O)n1,,P3HR-1,,150 µM
CC[C@H](CC[C@@H](C)[C@H]1CCC2C3CC=C4C[C@@H](O)CC[C@]4(C)[C@@]3(C)CC[C@@]21C)C(C)C,ATP,RAJI,,>26 µM
CN(CC1CCCCC1)C1CCN(c2nc(=O)c3cc(C(F)(F)F)cc([N+](=O)[O-])c3s2)C1,MTT,A-594,,67.46 µg/mL
C[C@H]1c2ccoc2C[C@H]2[C@H]1[C@@H](O)[C@@H](OC(=O)/C=C/c1ccccc1)[C@@]1(O)C(C)(C)CCC[C@]21C,,NCI-H187,,6.2 µg/mL
Nc1nc2c(ncn2COC(CO)CO)c(=O)[nH]1,,SupT1,,50 µg/mL
Nc1ncnc2c1ncn2C[C@@H](CO)OCP(=O)(O)O,,U138-MG,,55 µg/mL
CCCCCC(=O)OC1(C)c2ccccc2-c2c1c(-n1ccnc1)nc1ccc(Br)cc21,MTT,U-937,,>10 µg/mL
CC1CCCC23CC4C(CC12C)C4(C)C3,ATP,BJ,,>26 µM
Cc1c(N)nc(N)nc1OCCOCP(=O)(O)O,,HepAD38,,>360 µM
NS(=O)(=O)c1cc([N+](=O)[O-])c(N(CCO)CCO)c([N+](=O)[O-])c1,,MDCK cells,,>80 µM
CC(C)CN(C[C@@H](O)[C@H](Cc1cc(F)cc(F)c1)NC(=O)O[C@H]1CCO[C@H]2OCC[C@H]21)S(=O)(=O)c1ccc2nc(NC(C)C)sc2c1,MTT,KG-1-C,,>100 µM
CC/C=C\C[C@H]1C(=O)CC[C@@H]1CC(=O)OC,ATP,BJ,,>26 µM
Nc1ncc2c(ncn2COC(CO)CO)n1,MTS,HEL,,>400 µM
CCCN(CCC)c1c([N+](=O)[O-])cc(C(F)(F)F)cc1[N+](=O)[O-],,MDCK cells,,>80 µM
CC(=O)O[C@H]1C(=O)[C@@]2(C)[C@H]([C@H](OC(=O)c3ccccc3)[C@]3(O)C[C@H](OC(=O)[C@H](O)[C@@H](NC(=O)c4ccccc4)c4ccccc4)C(C)=C1C3(C)C)[C@]1(OC(C)=O)CO[C@@H]1C[C@@H]2O,MTT,A459,,0.0035 µg/mL
C(=N\Nc1nncs1)/c1cn(CC2CC2)c2ccccc12,MTT,Fibroblast L929 cell line,24 h,>100 µg/mL
CCC(CC)Nc1c([N+](=O)[O-])cc(S(N)(=O)=O)cc1[N+](=O)[O-],,MDCK cells,,85.9 µM
CCON=C1CN(c2nc(=O)c3cc(C(F)(F)F)cc([N+](=O)[O-])c3s2)C1,MTT,A-594,,707 µg/mL
O=c1[nH]cnc2c1ncn2[C@H]1CC[C@@H](CO)O1,,HELA-CD4+,,3.5 µM
O=c1[nH]c(=O)n([C@H]2C[C@H](O)[C@@H](CO)O2)cc1/C=C/Br,,OST TK-/HSV-1 TK+,,0.142 µM
CC(C)CN(C[C@@H](O)[C@H](Cc1ccc(F)cc1)NC(=O)O[C@H]1CCO[C@H]2OCC[C@H]21)S(=O)(=O)c1ccc2nc(NC(C)C)sc2c1,MTT,HKBMM,,>100 µM
CN(C)C(=O)O/N=C1\c2ccccc2-c2c1c(-n1ccnc1)nc1ccc(Br)cc21,MTT,U-937,,20 µg/mL
C=CC1CN2CCC1CC2C[C@H](O)c1ccnc2ccc(OC)cc12,,THP-1 monocytes,,70 µg/mL
CC1(C)CC[C@]2(C(=O)O)CC[C@]3(C)C(=CC[C@@H]4[C@@]5(C)C[C@@H](O)[C@H](O)[C@@](C)(CO)[C@@H]5CC[C@]43C)[C@@H]2C1,ATP,RAJI,,>26 µM
Nc1ccn([C@H]2CC[C@@H](CO)O2)c(=O)n1,,BFU-E,,0.7 µM
CCn1cc(/C=N/Nc2nncs2)c2ccccc21,MTT,Fibroblast L929 cell line,24 h,>100 µg/mL
S=C(N/N=C(/c1ccccn1)C1C=CC=CC1)c1ccccc1,propidium iodide,CEM-GFP,,>10 µM
Cc1cn([C@H]2C[C@H](N=[N+]=[N-])[C@@H](CO)O2)c(=O)[nH]c1=O,,CBMC,,60 µM
O=[N+]([O-])c1cc(C(F)(F)F)cc([N+](=O)[O-])c1N(CCO)CCO,,MDCK cells,,65.9 µM
O=c1[nH]c(=O)n([C@H]2C[C@H](O)[C@@H](CO)O2)cc1/C=C/Br,,U373-MG,,>200 µg/mL
CC(C)(C)OC(=O)N1CCCC1C(=O)O/N=C1\c2ccccc2-c2c1c(N1CCN(c3ccccn3)CC1)nc1ccc(Br)cc21,MTT,U-937,,>20 µg/mL
CC1(C)CCC[C@]2(C)C3=CC4=CC(=O)C(=O)C=C4O[C@@]3(C)CC[C@@H]12,resazurin,J774A.1 macrophages,,50.4 µg/mL
C(=N\Nc1nncs1)/c1cn(CC2CCCCC2)c2ccccc12,MTT,Fibroblast L929 cell line,24 h,>100 µg/mL
CCC(CC)Nc1c([N+](=O)[O-])cc(C(F)(F)F)cc1[N+](=O)[O-],,MDCK cells,,185 µM
Cc1cn([C@H]2C[C@H](N=[N+]=[N-])[C@@H](CO)O2)c(=O)[nH]c1=O,,P3HR-1,,200 µM
CCCNc1c([N+](=O)[O-])cc(C(F)(F)F)cc1[N+](=O)[O-],,MDCK cells,,>80 µM
Nc1ncnc2c1ccn2[C@@H]1O[C@H](CO)[C@@H](O)[C@H]1O,,PRK,,0.4 µg/mL
Nc1nc(N)c(C=O)c(OCCOCP(=O)(O)O)n1,,HEPAD79,,>342 µM
C[C@H]1[C@H](C)CC[C@]2(C(=O)O)CC[C@]3(C)C(=CC[C@@H]4[C@@]5(C)CC[C@H](O)C(C)(C)[C@@H]5CC[C@]43C)[C@H]12,ATP,RAJI,,>26 µM
Nc1nc2c(ncn2COC(CO)CO)c(=O)[nH]1,,P3HR-1,,200 µM
Fc1ccc(Cn2cc(/C=N/Nc3nncs3)c3ccccc32)cc1,MTT,Fibroblast L929 cell line,24 h,>100 µg/mL
Nc1ncc2c(ncn2COC(CO)CO)n1,,SupT1,,0.051 µg/mL
Cc1cc(NS(=O)(=O)c2ccc(N3C(=O)CSC3c3ccc(F)cc3)cc2)no1,MTT,MCF-7,,>100 µg/mL
CO/N=C1\CCN(c2nc(=O)c3cc(C(F)(F)F)cc([N+](=O)[O-])c3s2)C1,MTT,A-594,,57.66 µg/mL
O=C1CCCN1CCCN1CC(=O)N2CC(N(CCOc3ccccc3)S(=O)(=O)c3cccc(F)c3)C[C@H]2C1=O,,HEK,,>10 µM
Brc1ccc(Cn2cc(/C=N/Nc3nncs3)c3ccccc32)cc1,MTT,Fibroblast L929 cell line,24 h,>100 µg/mL
Cc1cc(OCCOCP(=O)(O)O)nc(N)n1,,HEPAD79,,>380 µM
Clc1ccccc1Cn1cc(/C=N/Nc2nncs2)c2ccccc21,MTT,Fibroblast L929 cell line,24 h,>100 µg/mL
CCCCCCCCC(=O)OC1(C)c2ccccc2-c2c1c(-n1ccnc1)nc1ccc(Br)cc21,MTT,U-937,,20 µg/mL

5 of the rows above, restated:

smiles | read by | cells | conditions | value
Nc1ccn([C@H]2CO[C@@H](CO)O2)c(=O)n1 |  | P3HR-1 |  | 150 µM
O=C1CCCN1CCCN1CC(=O)N2CC(N(CCOc3ccccc3)S(=O)(=O)c3cccc(F)c3)C[C@H]2C1=O |  | HEK |  | >10 µM
CCn1cc(/C=N/Nc2nncs2)c2ccccc21 | MTT | Fibroblast L929 cell line | 24 h | >100 µg/mL
CC1CCCC23CC4C(CC12C)C4(C)C3 | ATP | BJ |  | >26 µM
CC[C@H](CC[C@@H](C)[C@H]1CCC2C3CC=C4C[C@@H](O)CC[C@]4(C)[C@@]3(C)CC[C@@]21C)C(C)C | ATP | RAJI |  | >26 µM